# Share of PSTVd loop 27 variants by leaf site

The pool varies loop 27 of the PSTVd intermediate strain in the pattern UNNNNA; wild type is UUUUCA (5' to 3', with the closing base pair).

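Three N. benthamiana plants were inoculated with the whole mutant pool. Samples came from the inoculated region at 5 days, the leaf margin at 10 and upper systemic leaves at 12.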

Numbers give reads per thousand; 0 = not seen among the reads, higher = more abundant. Each value is the mean of three plants. "Pool" is the share in the plasmid pool used as inoculum, on the same scale. The inoculated region was read from the minus strand, the other sites from the plus strand. IR is the inoculated region, LM the leaf margin, Sys the systemic leaves.

UACUCA (pool 1.15) gave IR 2.21; LM 0.340; Sys 0.0233. UGCGUA (pool 4.03) gave IR 1.46; LM 0.171; Sys 0.0238. With UCUGGA (pool 4.70) the assay gave IR 1.89; LM 0.220; Sys 0.0598. UGCCUA (pool 2.13) read IR 0.816; LM 0.0424; Sys 0.00656. For UUGGAA (pool 9.78) the result was IR 8.65; LM 1.45; Sys 0.171. For GAUCGA (pool 0.0136) the result was IR 0; LM 0; Sys 0. With UCGCUA (pool 1.29) the assay gave IR 0.594; LM 0.0359; Sys 0.00509. With AUUGAA (pool 0.0136) the assay gave IR 0; LM 0; Sys 0. For UGGAAA (pool 3.12) the result was IR 2.23; LM 0.364; Sys 0.0734.

For UGUAGA (pool 4.86) the result was IR 12.8; LM 1.65; Sys 0.269. UAUGGA (pool 2.12) read IR 0.707; LM 0.0636; Sys 0.0423. With UGAAUA (pool 6.14) the assay gave IR 9.84; LM 0.882; Sys 0.118. UAGUUA (pool 4.90) gave IR 7.79; LM 1.15; Sys 0.113. UGGCCA (pool 3.15) gave IR 0.975; LM 0.0672; Sys 0.0255. UUUCUA (pool 5.09) gave IR 9.63; LM 0.666; Sys 0.147. UUGGUC (pool 0.0136) gave IR 0; LM 0; Sys 0. ACGGAA (pool 0.0136) read IR 0; LM 0; Sys 0. UCCGAA (pool 1.89) gave IR 0.734; LM 0.0111; Sys 0.0131.

UGACCA (pool 2.04) gave IR 0.694; LM 0.0333; Sys 0.0355. With GUUUGA (pool 0.0136) the assay gave IR 0.0122; LM 0; Sys 0. UAUGAA (pool 5.39) read IR 3.97; LM 0.998; Sys 0.143. With UUAGUA (pool 6.27) the assay gave IR 4.93; LM 0.690; Sys 0.0420. For UCGGGA (pool 10.5) the result was IR 4.77; LM 0.356; Sys 0.111. For UUUGCA (pool 9.03) the result was IR 11.6; LM 2.26; Sys 1.12. For UUACUA (pool 7.58) the result was IR 12.1; LM 0.774; Sys 0.218. With UAACGA (pool 2.85) the assay gave IR 0.973; LM 0.0202; Sys 0.0107. For GUUUCA (pool 0.0136) the result was IR 0.0122; LM 0.166; Sys 0.279.

GUUGUA (pool 0.0272) read IR 0.0122; LM 0; Sys 0. With UUUCAA (pool 3.37) the assay gave IR 5.72; LM 0.293; Sys 0.0761. With UGUGGA (pool 6.66) the assay gave IR 4.24; LM 0.461; Sys 0.0859. With UGUUCA (pool 3.27) the assay gave IR 5.27; LM 0.885; Sys 0.980. GGAUAA (pool 0.0136) read IR 0.00546; LM 0; Sys 0. UAUAAA (pool 5.60) gave IR 3.85; LM 0.722; Sys 0.139. With UCCAUA (pool 2.00) the assay gave IR 0.409; LM 0.0617; Sys 0.00509. UCAAAA (pool 4.43) gave IR 2.40; LM 0.302; Sys 0.0119.

Extract of 3 entries:

UGGAAA (pool 3.12) read IR 2.23; LM 0.364; Sys 0.0734.
AUUGAA (pool 0.0136) read IR 0; LM 0; Sys 0.
UUUCUA (pool 5.09) read IR 9.63; LM 0.666; Sys 0.147.

Samples held 30,013 to 65,426 reads, so the smallest values rest on one or two reads. Sequences that differ at fixed positions probably stem from PCR or sequencing errors, and defective variants can be carried along by functional ones. Wild type was 39.4 per thousand in the pool and the most common sequence in every sample (inoculated region 155, 124, 130; leaf margin 823, 907, 920; systemic leaves 805, 787, 933).

From the data files of Wu et al. 2024, doi:10.1371/journal.ppat.1012142.